Results of unrelated studies side by side (data: NIAID ChemDB).

Shared fields: enzyme or target tests; organism: HIV-1; protein: Reverse transcriptase

ICn: concentration for n% inhibition. Conditions beyond the fields shown may differ between rows. a–b is a range or a potency band. An empty or dashed field is not shown.

smiles | strain | read by | mutations | measure | value
COc1ccc(CC(=O)Nc2nc(-c3ccccc3)cs2)cc1 |  | RT activity / absorbance |  | IC50 | 7.35 µM
Cc1ccc(-n2c(SCC(=O)Nc3ccc(C(=O)O)cc3Cl)nnc2C(F)F)c2c1CCCC2 |  | nucleotide incorporation / radiometric | RT-Y181C | IC50 | <0.05 µM
COc1ccccc1CC(=O)Nc1nc(-c2ccccc2)cs1 |  | RT activity / absorbance |  | IC50 | 18.8 µM
COc1ccc(/C=C/CSc2nc([C@H](C)c3c(F)cccc3F)c(C)c(=O)[nH]2)cc1 |  | RT activity / nucleotide incorporation | Y181I | IC50 | 2.99 µM
CCc1ccc(-n2c(Br)nnc2SCC(=O)Nc2ccc(C(=O)NCC(=O)OC)cc2Cl)c2ccccc12 |  | nucleotide incorporation / radiometric |  | IC50 | <0.05 µM
CC(C)Nc1cccnc1N1CCN(C(=O)c2cc3ccccc3[nH]2)CC1 |  | nucleotide incorporation |  | IC50 | <100 µM
Cn1c(-c2ccc([N+](=O)[O-])cc2)cs/c1=N\N=C1\C(=O)Nc2ccc(Cl)cc21 |  | RT activity / nucleotide incorporation / fluorescence |  | IC50 | 26 µM
Fc1ccc2c(c1)CN(c1nn3c(C4CC4)nnc3c3ccccc13)CC2 | KER2008 | RT activity / fluorescence |  | IC50 | 0.78 µM
Cc1ccc(-c2cs/c(=N\N=C3\C(=O)Nc4ccc(Cl)cc43)n2C)cc1 |  | RT activity / nucleotide incorporation / fluorescence |  | IC50 | 85 µM
c1csc(-c2nnc3c4ccccc4c(N4CCc5ccccc5C4)nn23)c1 | IIIB | RT activity / fluorescence |  | IC90 | >100 µM
COc1ccc2cc(C(=O)N3CCN(c4ncccc4NC(C)C)CC3)[nH]c2c1 |  | nucleotide incorporation |  | IC50 | <100 µM
CC(=O)Oc1c(OCC(=O)c2ccc(-c3ccccc3)cc2)ccc2c1C(=O)c1ccccc1C2=O |  |  |  | IC50 | 6 µM
COC(=O)C(C)CCC[C@H](C)[C@H](O)[C@@H](C)[C@@H](O)[C@@H](C)[C@H](O)[C@H](C)[C@H](CCO[C@@]1(C)Oc2c(C)c(O)c3c(c2C1=O)C(=O)C=C(N)C3=O)OC |  | ELISA |  | IC50 | >300 µM
Cn1c(-c2ccc(C#N)cc2)cs/c1=N\N=C1\C(=O)Nc2ccccc21 |  | RT activity / nucleotide incorporation / fluorescence |  | IC50 | 27 µM
CC(=O)Oc1c(OCC(=O)c2ccccc2)ccc2c1C(=O)c1ccccc1C2=O |  |  | Y181C | IC50 | >100 µM
c1ccc(-c2nnc3c4ccccc4c(N4CCc5ccccc5C4)nn23)cc1 | 98US_MSC5016 | RT activity / fluorescence |  | IC90 | >100 µM
COc1ccc(-c2cs/c(=N\N=C3\C(=O)Nc4ccc(Cl)cc43)n2C)cc1 |  | RT activity / nucleotide incorporation / fluorescence |  | IC50 | 28 µM
CCn1c2cc(=NN=[N-])ccc-2[n+](C)c(=O)c2cccnc21 |  | nucleotide incorporation | RT-Y188L | IC50 | 7.4 µM
F/C(=C\c1ccccc1Cl)CSc1nnnn1-c1cccc2ccccc12 |  | fluorescence |  | IC50 | ≥0.1 µM
CC(C)Nc1cccnc1N1CCN(C(=O)c2cc3ccc(F)cc3[nH]2)CC1 |  | nucleotide incorporation |  | IC50 | <100 µM
CC(=O)Oc1ccc2c(c1OC(C)=O)C(=O)c1ccccc1C2=O |  |  |  | IC50 | >100 µM
CC(C)Nc1cccnc1N1CCN(C(=O)c2cc3ccc(OCc4ccccc4)cc3[nH]2)CC1 |  | nucleotide incorporation |  | IC50 | <100 µM
Cc1cc(C)c(-n2nnnc2SCC(=O)c2cc3ccccc3o2)c(C)c1 |  | fluorescence |  | IC50 | ≥0.1 µM
CC(=O)O[C@@H]([C@@H](C)[C@H](OC(C)=O)[C@H](C)/C=C/C=O)[C@H](C)[C@@H](OC(C)=O)[C@@H](C)/C=C/C=C(/C)C(=O)NC1=CC(=O)c2c(c(O)c(C)c3oc(C)cc23)C1=O |  | ELISA |  | IC50 | >300 µM
CC(=O)COc1ccc2c(c1OC(C)=O)C(=O)c1ccccc1C2=O |  |  |  | IC50 | >100 µM
Cn1c(-c2ccc(Br)cc2)cs/c1=N\N=C1\C(=O)Nc2ccccc21 |  | RT activity / nucleotide incorporation / fluorescence |  | IC50 | 100 µM
CCc1ccc(-n2c(Br)nnc2SCC(=O)Nc2ccc(C(=O)NCC(=O)O)cc2Cl)c2ccccc12 |  | nucleotide incorporation / radiometric | RT-Y188L | IC50 | >0.1 µM
Cc1nnc2c3ccccc3c(N3Cc4ccccc4C(C)(C)C3)nn12 | IIIB | RT activity / fluorescence |  | IC90 | 68.5 µM
CCc1ccc(-n2c(SCC(=O)Nc3ccc(C(=O)O)cc3Cl)nnc2C(F)F)c2ccccc12 |  | nucleotide incorporation / radiometric | RT-Y188L | IC50 | >0.1 µM
COc1ccc(-n2nnnc2SCC(=O)Nc2ccccc2[N+](=O)[O-])cc1 |  | fluorescence |  | IC50 | ≥0.1 µM
Cc1cc(C2CC2)cc(Cl)c1-n1c(Br)nnc1SCC(=O)Nc1ccc(C(=O)O)cc1Cl |  | nucleotide incorporation / radiometric |  | IC50 | <0.05 µM
Cc1cc(C)cc(S(=O)(=O)c2c(C(N)=O)[nH]c3ccc(F)c(F)c23)c1 | WT | nucleotide incorporation / radiometric |  | Ki | 0.0022 µM
COc1ccc2c(C)ccc(-n3c(Br)nnc3SCC(=O)Nc3ccc(C(=O)O)cc3Cl)c2c1 |  | nucleotide incorporation / radiometric | RT-Y188L | IC50 | <0.05 µM
CCNc1cccnc1N1CCN(C(=O)c2cc3ccccc3[nH]2)CC1 |  | nucleotide incorporation |  | IC50 | <100 µM
COc1ccc2c(C3CC3)ccc(-n3c(Br)nnc3SCC(=O)Nc3ccc(C(=O)O)cc3Cl)c2c1 |  | nucleotide incorporation / radiometric | RT-Y188L | IC50 | 0.05–0.1 µM
CC(C)Nc1cccnc1N(C)CCN(C)C(=O)c1cc2ccccc2[nH]1 |  | nucleotide incorporation |  | IC50 | <100 µM
NC(=O)c1[nH]c2ccc(Cl)cc2c1S(=O)(=O)c1ccccc1 |  | nucleotide incorporation / radiometric | RT-V106A | IC50 | 0.075 µM
COC(=O)/C(C)=C\C=C\[C@H](C)[C@H](OC(C)=O)[C@@H](C)[C@@H](OC(C)=O)[C@@H](C)[C@H](OC(C)=O)[C@H](C)[C@H](/C=C/O[C@@]1(C)Oc2c(C)c(O)c3c(c2C1=O)C(=O)C=C(N)C3=O)OC |  | ELISA |  | IC50 | >300 µM
Cn1c(-c2ccccc2)cs/c1=N\N=C1\C(=O)Nc2ccc(Cl)cc21 |  | RT activity / nucleotide incorporation / fluorescence |  | IC50 | 100 µM
CS(=O)(=O)c1ccccc1NC(=O)CSc1nnnn1-c1cccc2ccccc12 |  | fluorescence |  | IC50 | ≥0.1 µM

The last 5 rows once more:

smiles | strain | read by | mutations | measure | value
CC(C)Nc1cccnc1N(C)CCN(C)C(=O)c1cc2ccccc2[nH]1 |  | nucleotide incorporation |  | IC50 | <100 µM
NC(=O)c1[nH]c2ccc(Cl)cc2c1S(=O)(=O)c1ccccc1 |  | nucleotide incorporation / radiometric | RT-V106A | IC50 | 0.075 µM
COC(=O)/C(C)=C\C=C\[C@H](C)[C@H](OC(C)=O)[C@@H](C)[C@@H](OC(C)=O)[C@@H](C)[C@H](OC(C)=O)[C@H](C)[C@H](/C=C/O[C@@]1(C)Oc2c(C)c(O)c3c(c2C1=O)C(=O)C=C(N)C3=O)OC |  | ELISA |  | IC50 | >300 µM
Cn1c(-c2ccccc2)cs/c1=N\N=C1\C(=O)Nc2ccc(Cl)cc21 |  | RT activity / nucleotide incorporation / fluorescence |  | IC50 | 100 µM
CS(=O)(=O)c1ccccc1NC(=O)CSc1nnnn1-c1cccc2ccccc12 |  | fluorescence |  | IC50 | ≥0.1 µM